B1: 4838_L06 (PGT-121) (antibody, V domains shown)
VH: QMQLQESGPGLVKPSETLSLTCSVSGASISDSYWSWIRRSPGKGLEWIGYVHKSGDTNYSPSLKSRVNLSLDTSKNQVSLSLVAATAADSGKYYCARTLHGRRIYGIVAFNEWFTYFYMDVWGNGTQVTVSS
VL: SDISVAPGETARISCGEKSLGSRAVQWYQHRAGQAPSLIIYNNQDRPSGIPERFSGSPDSPFGTTATLTITSVEAGDEADYYCHIWDSRVPTKWVFGGGTTLTVL
B2: PGT-141 (4964_G22; 4993_K13) (antibody, V domains shown)
VH: QVQLVQSGPEVKKPGSSVKVSCKASGNTFSKYDVHWVRQATGQGLEWVGWMSHEGDKTESAQRFKGRVTFTRDTSASTAYMELRGLTSDDTAIYYCTRGSKHRLRDYVLYDDYGLINYQEWNDYLEFLDVWGHGTAVTVSS
VL: DTVVTQSPLSLPVTPGEAASMSCSSTQSLRHSNGANYLAWYQHKPGQSPRLLIRLGSQRASGVPDRFSGSGSGTHFTLKISRVEAEDAAIYYCMQGLNRPWTFGKGTKLEIK
B3: 4980_N08 (PGT-143) (antibody, V domains shown)
VH: QVQLEQSGAEVKKPGSSVKVSCKASGNTFSKYDVHWVRQATGQGLEWVGWMSHEGDKTESAQRFKGRVTFTRDTSASTAYMELRGLTSDDTAIYYCTRGSKHRLRDYVLYDDYGLINYQEWNDYLEFLDVWGHGTAVTVSS
VL: DTVVTQSPLSLPVTPGEAASMSCTSTQSLRHSNGANYLAWYQHKPGQSPRLLIRLGSQRASGVPDRFSGSGSGTHFTLKISRVEPEDAAIYYCMQGLNRPWTFGKGTKLEIK
B4: 4995_E20 (PGT-142) (antibody, V domains shown)
VH: QVQLVQSGPEVKKPGSSVKVSCKASGNTFSKYDVHWVRQATGQGLEWVGWISHERDKTESAQRFKGRVTFTRDTSATTAYMELRGLTSDDTAIYYCTRGSKHRLRDYVLYDDYGLINYQEWNDYLEFLDVWGHGTAVTVSS
VL: DTVVTQSPLSLPVTPGEAASMSCSSTQSLRHSNGANYLAWYQHKPGQSPRLLIRLGSQRASGVPDRFSGSGSGTHFTLKISRVEAEDAAIYYCMQGLNRPWTFGKGTKLEIK
B5: 4993_K13 (PGT-141) (antibody, V domains shown)
VH: QVQLVQSGPEVKKPGSSVKVSCKASGNTFSKYDVHWVRQATGQGLEWVGWMSHEGDKTESAQRFKGRVTFTRDTSASTAYMELRGLTSDDTAIYYCTRGSKHRLRDYVLYDDYGLINYQEWNDYLEFLDVWGHGTAVTVSS
VL: DTVVTQSPLSLPVTPGEAASMSCSSTQSLRHSNGANYLAWYQHKPGQSPRLLIRLGSQRASGVPDRFSGSGSGTHFTLKISRVEAEDAAIYYCMQGLNRPWTFGKGTKLEIK
B6: 5123_A06 (PGT-125) (antibody, V domains shown)
VH: QSQLQESGPRLVEASETLSLTCNVSGESTGACTYFWGWVRQAPGKGLEWIGSLSHCQSFWGSGWTFHNPSLKSRLTISLDTPKNQVFLKLTSLTAADTATYYCARFDGEVLVYNHWPKPAWVDLWGRGIPVTVSS
VL: QSALTQPPSASGSPGQSITISCNGTATNFVSWYQQFPDKAPKLIIFGVDKRPPGVPDRFSGSRSGTTASLTVSRLQTDDEAVYYCGSLVGNWDVIFGGGTTLTVL

What was measured:
Experiment in all cases: cell-based or functional assay
[1] = target: 162-pseudovirus panel representing all major circulating HIV-1 subtypes
[2] = target: HIV-1 Env of all pseudoviruses of the cross-clade 162-pseudovirus panel (n = 162)
[3] = target: panel of 22 HIV-1 pseudoviruses of Table 52
[4] = target: HIV-1 clade AE Env pseudoviruses of the cross-clade 162-pseudovirus panel (n=10)
[5] = target: HIV-1 clade C Env pseudoviruses of the cross-clade 162-pseudovirus panel (n=27)
[6] = target: HIV-1 clade D Env pseudoviruses of the cross-clade 162-pseudovirus panel (n=25)
[7] = target: HIV-1 clade A Env pseudoviruses of the cross-clade 162-pseudovirus panel (n=26)
[8] = target: HIV-1 clade AG Env pseudoviruses of the cross-clade 162-pseudovirus panel (n=10)
[9] = target: HIV-1 clade B Env pseudoviruses of the cross-clade 162-pseudovirus panel (n=31)
[10] = target: HIV-1 clade F Env pseudoviruses of the cross-clade 162-pseudovirus panel (n=15)
[11] = target: HIV-1 clade G Env pseudoviruses of the cross-clade 162-pseudovirus panel (n=15)

| Binder | Median IC50 (µg/ml) against viruses neutralized with an IC50 <50 µg/ml [1] | Median IC50 (µg/ml) against viruses neutralized with an IC50 <50 µg/ml [2] | Median IC50 (µg/ml) against all viruses [4] | Median IC50 (µg/ml) against all viruses [6] | Percent viruses neutralized, IC50 < 1 µg/ml [1] | further results |
| --- | --- | --- | --- | --- | --- | --- |
| B1 | 0.03 µg/mL | 0.03 µg/mL | – | – | – | Percent viruses neutralized, IC50 < 50 µg/ml [1]: 70% |
| B2 | – | – | – | – | – | median IC50, pseudovirus neutralization [3]: 0.5 µg/mL |
| B3 | – | – | > 50 µg/mL | > 50 µg/mL | – | Median IC50 (µg/ml) against all viruses [5]: 0.8 µg/mL |
| B4 | – | – | > 50 µg/mL | > 50 µg/mL | 40% | – |
| B5 | – | – | > 50 µg/mL | > 50 µg/mL | – | – |
| B6 | 0.04 µg/mL | 0.04 µg/mL | – | – | 40% | Median IC50 (µg/ml) against viruses neutralized with an IC50 <50 µg/ml (section D) [7]: 0.07 µg/mL; Median IC50 (µg/ml) against viruses neutralized with an IC50 <50 µg/ml (section D) [4]: 0.22 µg/mL; Median IC50 (µg/ml) against viruses neutralized with an IC50 <50 µg/ml (section D) [8]: 0.05 µg/mL; Median IC50 (µg/ml) against viruses neutralized with an IC50 <50 µg/ml (section D) [9]: 0.13 µg/mL; Median IC50 (µg/ml) against viruses neutralized with an IC50 <50 µg/ml (section D) [5]: 0.18 µg/mL; Median IC50 (µg/ml) against viruses neutralized with an IC50 <50 µg/ml (section D) [6]: 0.87 µg/mL; Median IC50 (µg/ml) against viruses neutralized with an IC50 <50 µg/ml (section D) [10]: 0.37 µg/mL; Median IC50 (µg/ml) against viruses neutralized with an IC50 <50 µg/ml (section D) [11]: 0.05 µg/mL |

— patent US20240132578A1
